Target: A/Brisbane/10/2007 (H3N2) hemagglutinin with Pro at residue 194 (influenza A virus A/Brisbane/10/2007 (H3N2))
Test: crystal structure

“A/Brisbane/10/2007 (H3N2) hemagglutinin with Pro at residue 194 (natural protein)” showed a stoichiometry N of 3.

Source: PMC5667890, “A structural explanation for the low effectiveness of the seasonal influenza H3N2 vaccine” (2017)
